A mixed list of measured activities; the numbers were collected in NIAID ChemDB.

Shared fields: host cell toxicity; cells: HeLa; read-out: CC50

CCn is the concentration with n% toxicity to the cells. Conditions beyond the fields shown may differ between rows. An empty or dashed field is not shown.

smiles | method | value
CCOC(=O)c1ccc(OCCCCC(=O)c2ccc(Cl)cc2)cc1 |  | >277 µM
CCCC1CN(C(=O)C(=O)c2c[nH]c3cccc(F)c23)CCN1C(=O)c1ccccc1 | XTT | 100 µM
CCOC(=O)c1ccc(OCCCCC(=O)c2ccccc2)cc1 |  | >306 µM
Cc1ccc(C(=O)CCCCOc2ccc(C3=NCCO3)cc2)s1 |  | 146 µM
CC1=C(C(=O)O)C(c2ccccc2)NC(=O)N1 | XTT | >100 µM
O=C(CCCCOc1ccc(C2=NCCO2)cc1)c1ccccc1 |  | 51 µM
CCCCCCCCCc1ccc(OCCOCCOCCOCCOCCOCCOCCOCCOCCO)cc1 | MTT | 113 µM
Cc1ccc(C(=O)CCCCCCOc2ccc(C3=NC(C)CO3)cc2)s1 |  | 16 µM
Cc1cnc(Cl)c(/C=C/C(=O)c2ccccc2)c1 | MTT | 38 µM
N#CC(N)=NCCN=C(N)NC(N)=[NH+]CCCCCCCCCC[NH+]=C(N)NC(N)=NCCN.[Cl-].[Cl-] | MTT | 262 µM
CCOC(=O)c1ccc(OCCCCC(=O)c2ccc(C)s2)cc1 |  | >289 µM
CCOc1ncn(-c2ccc(NC(=S)NC34CC5CC(CC(C5)C3)C4)cc2)n1 |  | 200 µg/mL
N#Cc1cccnc1Oc1ccc(C(=O)c2ccccc2)cc1 |  | >10 µg/mL
CCOC(=O)c1ccc(OCCC2CCN(c3ccc(C)nn3)CC2)cc1 |  | 150 µM
O=c1[nH]cnc2c1ncn2C1C[C@H](CO)[C@@H](CO)C1 |  | >200 µg/mL
CCCOc1ncn(-c2ccc(NC(=S)NC34CC5CC(CC(C5)C3)C4)cc2)n1 |  | 20 µg/mL
N#CC(N)=NCCCCCC[NH+]=C(N)NC(N)=NCCCCCCN=C(N)NC(N)=[NH+]CCCCCCN.[Cl-].[Cl-] | MTT | 110 µM
CC1=C(C(=O)OCc2ccccc2)C(c2ccc(Cl)cc2)NC(=O)N1 | XTT | >100 µM
O=C(/C=C/c1cc(-c2ccccc2)cnc1Cl)c1ccccc1 | MTT | 152 µM
Cc1ccc(C(=O)CCCCCCOc2ccc(C3=N[C@H](C)CO3)cc2)s1 |  | 16 µM
O=C(c1ccccc1)c1ccc(Oc2ccc(S(=O)(=O)Cc3ccccc3)cn2)cc1 |  | >10 µg/mL
Cc1ccc(C(=O)CCCCOc2ccc(C3=NCC(C)O3)cc2)s1 |  | 210 µM
CN1C(=O)c2c(c3cccnc3n(O)c2=O)NC1c1cccc(CN)c1 |  | <100 µM
CCS(=O)(=O)c1ccc(Oc2ccc(C(=O)c3ccccc3)cc2)nc1 |  | >10 µg/mL
O=c1cc(N2CCc3ccc(-c4ccncc4)cc3C2)c2cccnc2n1O |  | <100 µM
CCCOc1ncn(-c2ccc(NC(=S)Nc3cnccn3)cc2)n1 |  | 100 µg/mL
CC1CN(C(=O)c2ccccc2)C(C)CN1C(=O)C(=O)c1c[nH]c2cccc(F)c12 | XTT | >300 µM
CCOC(=O)/C=C/c1cc(CC)cnc1Cl | MTT | 9 µM
CCCCCC1CN(C(=O)c2ccccc2)CCN1C(=O)C(=O)c1c[nH]c2cccc(F)c12 | XTT | 33 µM
O=c1c(-c2ccccc2Cl)c(O)c2cccnc2n1O |  | <100 µM
COc1cccc2[nH]cc(C(=O)C(=O)N3CCN(C(=O)c4ccccc4)CC3C)c12 | XTT | >300 µM
CCOc1ncn(-c2ccc(NC(=S)Nc3ncccn3)cc2)n1 |  | 40 µg/mL
CC1=C(C(=O)OCc2ccccc2)C(c2ccco2)NC(=O)N1 | XTT | >100 µM
C/C(=C\CC/C(C)=C/Cc1cc(O)cc(C)c1O)CC/C=C(\C)CC[C@@H](C)C(C)(C)O |  | 8.2 µM
CCOc1ncn(-c2ccc(NC(=S)Nc3cnccn3)cc2)n1 |  | 20 µg/mL
CC(C)CC1CN(C(=O)c2ccccc2)CCN1C(=O)C(=O)c1c[nH]c2cccc(F)c12 | XTT | 28 µM
Cc1ccc(C(=O)CCCCOc2ccc(C3=NCCO3)cc2)cc1Cl |  | >269 µM
COC(=O)c1ccc(/C=C/C(=O)c2ccccc2)c(Cl)n1 | MTT | 104 µM
OC[C@H]1CC(n2cnc3c(NC4CC4)ncnc32)C[C@@H]1CO |  | >200 µg/mL
CCC1CN(C(=O)C(=O)c2c[nH]c3cccc(F)c23)CCN1C(=O)c1ccccc1 | XTT | 188 µM
CC[n+]1c(-c2ccccc2)c2cc(NC(N)=O)ccc2c2ccc(N)cc21 |  | >10 µM
CN1C(=O)c2c(c3cccnc3n(O)c2=O)NC1c1ccccc1 |  | <100 µM
O=c1[nH]c(=O)n([C@@H]2C[C@H](CO)C[C@H]2CO)cc1I |  | >200 µg/mL
Cc1ccc(C(=O)CCCCOc2ccc(C3=NC(C)(C)CO3)cc2)s1 |  | 17 µM
Cc1ccsc1C(=O)CCCCOc1ccc(C2=NCCO2)cc1 |  | 291 µM
CCCCCCCCCCCCCCCC(=O)OC[C@H]1OC(OC(=O)NS(=O)(=O)OC[C@H]2O[C@@H](n3ccc(=O)[nH]c3=O)[C@@H]3OC(C)(C)O[C@@H]32)[C@H](OC(=O)CCCCCCCCCCCCCCC)[C@@H](OC(=O)CCCCCCCCCCCCCCC)[C@@H]1OC(=O)CCCCCCCCCCCCCCC |  | 220 µM
O=c1cc(O)c2c(-c3cccc(Br)c3)ccnc2n1O |  | <100 µM
O=C(NS(=O)(=O)OC[C@H]1O[C@@H](n2ccc(=O)[nH]c2=O)[C@H](O)[C@@H]1O)O[C@H]1O[C@H](COC(=O)c2ccccc2)[C@@H](OC(=O)c2ccccc2)[C@H](OC(=O)c2ccccc2)[C@H]1OC(=O)c1ccccc1 |  | 230 µM
CC1=C(C(=O)O)C(c2ccc(F)cc2)NC(=O)N1 | XTT | >100 µM
N#CC(N)=NCCCCN=C(N)NC(N)=[NH+]CCCCCC[NH+]=C(N)NC(N)=NCCN.[Cl-].[Cl-] | MTT | 1414 µM
CS(=O)(=O)c1cccc(Oc2ccc(C(=O)c3ccccc3)cc2)n1 |  | >10 µg/mL
C[C@@H]1CN(C(=O)c2ccccc2)CCN1C(=O)C(=O)c1c[nH]c2cccc(F)c12 | XTT | >300 µM
CCC1COC(c2ccc(OCCCCC(=O)c3ccc(C)s3)cc2)=N1 |  | 24 µM
CCOC(=O)c1ccc(OCCCCC(=O)c2cc(C)cs2)cc1 |  | >289 µM
CCS(=O)(=O)c1cccnc1Oc1ccc(C(=O)c2ccccc2)cc1 |  | >10 µg/mL

5 of the rows above, restated:

smiles,method,value
COc1cccc2[nH]cc(C(=O)C(=O)N3CCN(C(=O)c4ccccc4)CC3C)c12,XTT,>300 µM
Cc1ccc(C(=O)CCCCOc2ccc(C3=NCC(C)O3)cc2)s1,,210 µM
CCCOc1ncn(-c2ccc(NC(=S)Nc3cnccn3)cc2)n1,,100 µg/mL
CCOC(=O)c1ccc(OCCCCC(=O)c2cc(C)cs2)cc1,,>289 µM
C/C(=C\CC/C(C)=C/Cc1cc(O)cc(C)c1O)CC/C=C(\C)CC[C@@H](C)C(C)(C)O,,8.2 µM